Compound potency records, mixed from different reports. Data source: NIAID ChemDB in PubChem.

Shared fields: whole-cell or culture tests; organism: HIV-1; read-out: EC50

a–b is a range or a potency band. ECn: concentration that inhibits the pathogen or its effect by n%. An empty or dashed field is not shown. Rows are shuffled and stem from different studies.

SMILES | cell line | strain | read by | mutations | conditions | result
c1ccc2[nH]c(C3CCCCO3)nc2c1 | CEM + CEM-SS | RF | - | - | - | >6.33 µM
O=S(=O)(Nc1cccc2cccnc12)c1ccc(Cl)cc1Cl | H9 | NL4-3 | p24 / ELISA | - | pseudotyped | >50 µM
C=CCN1Cc2cccc3[nH]c(=O)n(c23)C[C@H]1C | MT-4 | IIIB | cytopathic effect / MTT | - | - | >592 µM
CC(C)C1=C2[C@H]3CC[C@@H]4[C@@]5(C)CC[C@H](OC(=O)[C@H]6C[C@@H](C(=O)O)C6(C)C)C(C)(C)[C@@H]5CC[C@@]4(C)[C@]3(C)CC[C@@]2(CC(=O)NCc2ccc(Cl)c(Cl)c2)CC1=O | MT-2 | 92HT599 | p24 / ELISA | - | - | <1 µM
Cc1cc(C)c(-n2nnnc2SCC(=O)Nc2ccc3c(c2)OCO3)c(C)c1 | C8166 | RT-K103N Y181C | p24 | 1(RT-K103N Y181C) | - | ≥0.1 µM
C[C@H]1Cn2c(=O)[nH]c3cccc(c32)CN1 | MT-4 | IIIB | cytopathic effect / MTT | - | - | >901 µM
CC(C)C1=C2[C@H]3CC[C@@H]4[C@@]5(C)CC[C@H](OC(=O)[C@H]6C[C@@H](C(=O)O)C6(C)C)C(C)(C)[C@@H]5CC[C@@]4(C)[C@]3(C)CC[C@@]2([C@@H](O)CNC(=O)C(C)(C)NC(=O)c2ccc(O[C@@H]3CCOC3)cc2)CC1=O | MT-2 | 92HT599 | p24 / ELISA | - | - | <1 µM
CN(C(=O)N[C@@H](Cc1ccccc1)C(=O)N1CCC(=O)C1)c1ccccc1 | MT-4 | - | syncytia / trypan blue | - | - | >50 µM
O=C(O)c1cn(C2CC2)c2c(OC(F)F)c(N3CCN(c4ccc(F)cc4)CC3)c(F)cc2c1=O | MOLT-4 | IIIB | p24 | - | - | 0.043 µM
Nc1nc2c(ncn2[C@H]2C=C[C@@H](CO)O2)c(=O)o1 | H9 | IIIB | RT activity | - | - | >30 µg/mL
Cc1cn([C@H]2C=C[C@@H](OCP(=O)(O)O)O2)c(=O)[nH]c1=O | MT-2 | IIIB | cytopathic effect / XTT | - | - | 85 µg/mL
CC1(c2nc3ccccc3[nH]2)CCC(CO)C(C)(C)O1 | CEM + CEM-SS | RF | - | - | - | >0.063 µM
CCCc1c(OC2CCC2)c2cc(Cl)ccc2[nH]c1=O | MT-4 | Nevirapine-resistant (RT Y181C) | - | RT-Y181C | - | >5 µM
CCCc1cc(=O)oc2c3c(c4c(c12)OC(C)(C)CC4)O[C@@H](C)[C@H](C)[C@@H]3O | CEM + CEM-SS | Dihydrocostatolide-resistant (RT-L100I) | XTT | RT-L100I | - | >27 µM
CC(C)CC(NC(=O)OC(C)(C)C)C(=O)N1CCC(O)C1 | MT-4 | - | syncytia / trypan blue | - | - | >100 µM
CC(C)C1=C2[C@H]3CC[C@@H]4[C@@]5(C)CC[C@H](OC(=O)[C@H]6C[C@@H](C(=O)O)C6(C)C)C(C)(C)[C@@H]5CC[C@@]4(C)[C@]3(C)CC[C@@]2(CC(=O)NCC2(NC(=O)c3ccc(Cl)cc3)CCCC2)CC1=O | MT-2 | 92HT599 | p24 / ELISA | - | - | <1 µM
Nc1nc2c(ncn2[C@@H]2O[C@H](COS(N)(=O)=O)[C@@H](O)[C@H]2O)c(=O)o1 | H9 | IIIB | RT activity | - | - | >30 µg/mL
Nc1nc(=O)n([C@H]2C=C[C@@H](OCP(=O)(O)O)O2)cc1I | MT-2 | IIIB | cytopathic effect / XTT | - | - | >100 µg/mL
O=S(=O)(Nc1ccccc1)c1ccc(F)cc1F | H9 | NL4-3 | p24 / ELISA | - | pseudotyped | >20 µM
Cc1ccnc(SC(F)(F)c2nc3ccccc3o2)n1 | - | IIIB | - | - | - | 0.067 µM
CCCCCCCCCC[N+](C)(C)CCCNCc1c(O)cc2c(c1O)-c1cc(ccc1O)[C@H]1NC(=O)[C@@H]3NC(=O)C4NC(=O)[C@@H](Cc5ccc(c(Cl)c5)Oc5cc3cc(c5O)Oc3ccc(cc3Cl)[C@@H](O)[C@H](NC1=O)C(=O)N[C@@H]2C(=O)O)NC(=O)[C@H](N)c1ccc(O)c(c1)Oc1cc(O)cc4c1 | CEM | MN | syncytia | - | - | 6.5 µM
O=[N+]([O-])c1ccc(S(=O)(=O)Nc2cccc3cccnc23)cc1 | H9 | NL4-3 | p24 / ELISA | - | pseudotyped | >30 µM
Cc1cn([C@H]2C[C@H](N=[N+]=[N-])[C@@H](CO)O2)c(=O)[nH]c1=O | C8166 | - | cytopathic effect | - | - | 0.00951 µM
O=c1ccn([C@@H]2O[C@H](CO)[C@@H](F)[C@H]2O)c(=O)[nH]1 | MT-4 | - | - | - | - | >20 µM
NC1=NS(=O)(=O)N(Cc2ccccc2)c2nc(-c3ccc(Cl)cc3)[nH]c21 | CEM | IIIB | syncytia | - | - | >4 µg/mL
Cc1cn([C@H]2C=C[C@@H](CO)O2)c(=O)[nH]c1=O | CEM + CEM/0 | IIIB | syncytia | - | - | 0.8 µM
CCOP(=O)(NCCC(=O)OC)OC[C@H]1O[C@@H](n2cc(C)c(=O)[nH]c2=O)C[C@@H]1N=[N+]=[N-] | C8166 | RF | ELISA | - | - | 20 µM
C=C(C)C1CC[C@]2(C(=O)O)CC[C@]3(C)C(CCC4[C@@]5(C)C[C@@H](O)[C@H](OC(C)=O)C(C)(C)C5CC[C@]43C)C12 | 1A2 | Tat/Rev-defective | syncytia | - | - | 6 µg/mL
CCCNP(=O)(OCC)OC[C@H]1O[C@@H](n2cc(C)c(=O)[nH]c2=O)C[C@@H]1N=[N+]=[N-] | C8166 | RF | ELISA | - | - | 50 µM
C=C(C)[C@@H]1CC[C@]2(C(=O)NCCCCCCCC(=O)N[C@@H](CC(C)C)[C@@H](O)CC(=O)O)CC[C@]3(C)[C@H](CC[C@@H]4[C@@]5(C)CC[C@H](O)C(C)(C)[C@@H]5CC[C@]43C)[C@@H]12 | HeLa P4 + HeLa | LAI | syncytia | GP41-L91H | - | >10 µM
COc1ccc(S(=O)(=O)Nc2cccc3cccnc23)cc1 | H9 | NL4-3 | p24 / ELISA | - | pseudotyped | >50 µM
C=C[C@]1(C)[C@@H](O)CC2=C(CCC3C(C)(C)C(=O)CC[C@]23C)[C@@H]1O | C8166 | - | cytopathic effect | - | - | 5.58 µM
CCCc1c(OCC2CCC2)c2cc(F)ccc2[nH]c1=O | MT-4 | - | - | - | - | 0.035 µM
NC1=NS(=O)(=O)N(Cc2ccccc2)c2nc[nH]c21 | CEM | IIIB | syncytia | - | - | 30 µg/mL
Cc1cn([C@H]2C[C@H](N=[N+]=[N-])[C@@H](CO)O2)c(=O)[nH]c1=O | U-937/HIV-1(IIIB) + U-937 | IIIB | RT activity | - | - | >30 µg/mL
O=S(=O)(Nc1cccc2cccnc12)c1ccccc1 | H9 | NL4-3 | p24 / ELISA | - | pseudotyped | >50 µM
CC(C)C1=C2[C@H]3CC[C@@H]4[C@@]5(C)CC[C@H](OC(=O)[C@H]6C[C@@H](C(=O)O)C6(C)C)C(C)(C)[C@@H]5CC[C@@]4(C)[C@]3(C)CC[C@@]2([C@@H](O)CNC(=O)c2nccn2C)CC1=O | MT-2 | 92HT599 | p24 / ELISA | - | - | <1 µM
C/C=C/C=C/CN1Cc2cccc3[nH]c(=O)n(c23)CC1C | MT-4 | IIIB | cytopathic effect / MTT | - | - | >378 µM
CC(C)(C)OC(=O)N[C@@H](Cc1ccccc1)C(=O)N1CCC[C@H]1C(=O)O | MT-4 | - | syncytia / trypan blue | - | - | >100 µM
CCOP(=O)(NCC(=O)OC)OC[C@H]1O[C@@H](n2cc(C)c(=O)[nH]c2=O)C[C@@H]1N=[N+]=[N-] | C8166 | RF | ELISA | - | - | 10 µM
COC(=O)[C@H](Cc1ccccc1)NC(=O)[C@H]1/C(=C/CO)O[C@@H]2CC(=O)N21 | MT-2 | IIIB | cytopathic effect / XTT | - | - | 68 µg/mL
Clc1cc2nc(C3CCCCO3)[nH]c2cc1Cl | CEM + CEM-SS | RF | - | - | - | >2 µM
CC(C)(C)NC(=O)c1c(OC[C@@H](O)[C@H](Cc2ccccc2)NC(=O)[C@H](CC(N)=O)NC(=O)c2ccc3ccccc3n2)ccc2ccccc12 | CEM | IIIB | cytopathic effect / MTT | - | - | 0.24 µM
C[C@@H]1Cn2c(=O)[nH]c3cccc(c32)CN1 | MT-4 | IIIB | cytopathic effect / MTT | - | - | >901 µM
c1ccc2nc3ccccc3cc2c1 | Jurkat cells | - | - | - | - | >50 µM
Cc1cc(C)nc(SC(F)(F)c2nc3ccccc3o2)n1 | CEM + CEM-SS | RF | cytopathic effect / XTT | - | - | 2.16 µM
CC(C)C1=C2[C@H]3CC[C@@H]4[C@@]5(C)CC[C@H](OC(=O)[C@H]6C[C@@H](C(=O)O)C6(C)C)C(C)(C)[C@@H]5CC[C@@]4(C)[C@]3(C)CC[C@@]2([C@@H](O)CNCc2ccc(Cl)cc2OCCN(C)C)CC1=O | MT-2 | 92HT599 | p24 / ELISA | - | - | <1 µM
CC(C)C1=C2[C@H]3CC[C@@H]4[C@@]5(C)CC[C@H](OC(=O)CC(C)(C)C(=O)O)C(C)(C)[C@@H]5CC[C@@]4(C)[C@]3(C)CC[C@@]2([C@@H](O)CN(CCN(C)C)Cc2ccc(Cl)cc2)CC1=O | CEM-SS + MAGIC-5A | Q23.17 | syncytia / visual reading / single cycle | - | - | 0.0000028 µM
CCCc1c(OC2CCCC2)c2ccccc2[nH]c1=O | MT-4 | - | - | - | - | 0.154 µM
C=C(C)C1CC[C@]2(C(=O)O)CC[C@]3(C)C(CCC4[C@@]5(C)C[C@@H](OC(C)=O)[C@H](O)C(C)(C)C5CC[C@]43C)C12 | 1A2 | Tat/Rev-defective | syncytia | - | - | 5.6 µg/mL
CC[C@H](C)[C@H](NC(=O)[C@@H](C[C@H](O)[C@H](CC1CCCCC1)NC(=O)CC(C)(C)C)C(C)C)C(=O)NCc1ccccn1 | PBMC | IIIB | p24 / ELISA | - | - | <1 µM
CCN1Cc2cccc3[nH]c(=O)n(c23)CC1C | MT-4 | IIIB | cytopathic effect / MTT | - | - | >592 µM
O=c1[nH]c(=O)n([C@H]2C=C[C@@H](OCP(=O)(O)O)O2)cc1Cl | MT-2 | IIIB | cytopathic effect / XTT | - | - | 13–27 µg/mL
CC1Cn2c(=O)[nH]c3cccc(c32)CN1CC#N | MT-4 | IIIB | cytopathic effect / MTT | - | - | >508 µM
CCCc1c(SCC2CCC2)c2cc(F)ccc2[nH]c1=O | MT-4 | - | - | - | - | 0.017 µM
CC(=O)Nc1nc(-c2cccc(NC(=O)[C@@H](N)CCCN=C(N)N)c2)cs1 | - | NL4-3 | luciferase | - | - | >50 µM
N[C@H]1CONC1=O | CEM | N1T | p24 | - | - | <10 µg/mL
Cc1cccc(N2C(=O)CSC2c2c(F)cccc2Cl)n1 | CEM + CEM-SS | IIIB | - | - | - | 0.031 µM
CC(C)c1c(SCC2CCC2)c2cc(F)ccc2[nH]c1=O | MT-4 | - | - | - | - | 0.022 µM
C=C(Cc1ccccc1)CN1Cc2cccc3[nH]c(=O)n(c23)CC1C | MT-4 | IIIB | cytopathic effect / MTT | - | - | >572 µM
CC1(C)Oc2ccc3ccc(=O)oc3c2[C@@H](OC(=O)C23CCC(C)(C(=O)O2)C3(C)C)[C@H]1OC(=O)C12CCC(C)(C(=O)O1)C2(C)C | MT-4 | NL4-3 | p24 | RT-E138K | - | 10 µM
CC(C)(C)NC(=O)c1cc2ccccc2cc1OC[C@@H](O)[C@H](Cc1ccccc1)NC(=O)[C@H](CC(N)=O)NC(=O)c1ccc2ccccc2n1 | CEM | IIIB | cytopathic effect / MTT | - | - | 0.24 µM
CCOc1ccc(F)c(CCNC(=S)Nc2ncc(C(F)(F)F)s2)c1Cl | MT-4 | IIIB | cytopathic effect / XTT | RT-L100I | - | >2 µM
CN(c1cccc2cccnc12)S(=O)(=O)c1ccc(F)cc1F | H9 | NL4-3 | p24 / ELISA | - | pseudotyped | 1.18 µM
Nc1cccc2cc3ccccc3nc12 | CEM | - | - | - | - | >50 µM
Nc1ccn([C@H]2CC[C@@H](CO)O2)c(=O)n1 | CEM | IIIB | cytopathic effect / XTT | - | - | <0.03 µg/mL
Cc1cc(S(N)(=O)=O)ccc1NC(=O)COc1ccc(Cl)cc1C(=O)c1cc(F)cc(C(F)(F)F)c1 | HELA MAGI | IIIB | luciferase | RT-K103N P225H | - | 0.0015 µM
C[C@@H](C(=O)O)[C@@H]1CC[C@]2(C)[C@@H]3CC[C@H]([C@](C)(O)CO)[C@]4(CCC(=O)O4)C[C@@H]3CC[C@@]12C | C8166 | - | cytopathic effect | - | - | 20.69 µg/mL
CC(C)(C)OC(=O)NCC(=O)N1CCC(=O)C1 | MT-4 | - | syncytia / trypan blue | - | - | >100 µM
FC(F)(Sc1ncccn1)c1nc2ccccc2o1 | - | 4xAZT(RT-D67N K70R T215Y K219Q) | - | RT-D67N K70R T215Y K219Q | - | 0.373 µM
Cc1cn([C@H]2C=C[C@@H](CO)O2)c(=O)[nH]c1=O | PBMC | JEW | p24 | - | - | 0.098 µM
CC(C)C1=C2[C@H]3CC[C@@H]4[C@@]5(C)CC[C@H](OC(=O)[C@H]6C[C@@H](C(=O)O)C6(C)C)C(C)(C)[C@@H]5CC[C@@]4(C)[C@]3(C)CC[C@@]2([C@@H](O)CNCC(C)(C)NC(=O)c2ccc3ccccc3c2)CC1=O | MT-2 | 92HT599 | p24 / ELISA | - | - | <1 µM
CCCc1c(OC2CCCC2)c2cc(C)ccc2[nH]c1=O | MT-4 | Nevirapine-resistant (RT Y181C) | - | RT-Y181C | - | 4.3 µM
O=c1[nH]cnc2c1ncn2[C@@H]1O[C@H](CO)[C@@H](F)[C@H]1O | MT-4 | - | - | - | - | >500 µM